## Sequence variants of PSTVd loop 6 after infection

Data from the supplement of Wu et al. 2024, doi:10.1371/journal.ppat.1012142.

Region: loop 6 of PSTVd (intermediate strain), upper and lower strand joined, each 5' to 3', the first 5 letters being the upper strand, closing pairs included. Wild type: UGACCGCGAG. Varied positions (N): UNNNCGNNNG.

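Three N. benthamiana plants were inoculated with the whole mutant pool. Progeny were sequenced from the inoculated region (day 5), the margin of the inoculated leaf (day 10) and systemic leaves (day 12).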

Numbers give reads per thousand; 0 = not seen among the reads, higher = more abundant. Each site shows the three plants. "Pool" is the share in the plasmid pool used as inoculum, on the same scale. The inoculated region was read from the minus strand, the other sites from the plus strand. With 36,220-57,551 reads a sample, very low values are single reads. Sequences that differ at fixed positions probably stem from PCR or sequencing errors, and defective variants can be carried along by functional ones. Wild type was 20.7 per thousand in the pool and the most common sequence in every sample (inoculated region 195, 198, 203; leaf margin 629, 591, 734; systemic leaves 942, 870, 868).

sequence | pool | inoculated region | leaf margin | systemic leaves
UGCACGUCAG | 0.261 | 0.156 0.0898 0.0553 | 0 0 0 | 0 0 0
UUCUCGCGGG | 0.248 | 0.122 0.126 0.129 | 0 0 0.0232 | 0 0 0
UGUUCGCCGG | 0.209 | 0.104 0.108 0.0553 | 0 0 0 | 0 0 0
UCUGCGCUUG | 0.301 | 0.156 0.0539 0.0738 | 0 0 0 | 0 0 0
UCGCCGACUG | 0.327 | 0.0348 0.0719 0.148 | 0 0 0 | 0 0 0
UCUCCGCUUG | 0.222 | 0.0869 0.162 0.0369 | 0.0276 0 0 | 0 0 0
UCACCGUAUG | 0.222 | 0.104 0.126 0.0922 | 0.304 0 0.0696 | 0 0 0
UGUGCGAAAG | 0.301 | 0.156 0.108 0.0922 | 0 0 0.0232 | 0 0 0
UAUCCGUAAG | 0.209 | 0.174 0.162 0.0553 | 0 0 0.0232 | 0 0 0
UUACCGCACG | 0.183 | 0.730 0.916 0.590 | 0.193 0.126 0.116 | 0 0 0
UUGACGUAGG | 0.327 | 0.174 0.126 0.0738 | 0.0276 0 0 | 0 0 0
UGCGCGCCCG | 0.248 | 0.104 0.144 0.0369 | 0 0 0.0232 | 0 0 0
UGGUCGUGAG | 0.248 | 0.104 0.0539 0.166 | 0.0552 0 0 | 0 0 0
UAUUCGAUUG | 0.405 | 0.122 0.0719 0.129 | 0.0276 0 0 | 0 0 0
UCUCCGUAGG | 0.183 | 0.104 0.0719 0.0738 | 0 0 0 | 0 0 0
UAUUCGCUGG | 0.261 | 0.139 0.0539 0 | 0 0 0.0232 | 0 0 0
UUCCCGUUGG | 0.418 | 0.0695 0.0180 0.0553 | 0 0.454 0 | 0 0 0
UUUGCGAAUG | 0.222 | 0.122 0.0719 0.0369 | 0.0552 0 0 | 0 0 0
UUGACGGCUG | 0.144 | 0.104 0.0898 0.0738 | 0 0 0 | 0 0 0
UUCGCGCCGG | 0.235 | 0.122 0.0898 0.129 | 0 0 0.0232 | 0 0 0
UGCUCGGACC | 0.0131 | 0 0 0 | 0 0 0 | 0 0 0
UCGACGCUUG | 0.301 | 0.122 0.0719 0.184 | 0.0552 0 0 | 0 0 0
UAAACGCCGG | 0.0784 | 0.104 0.0719 0.0553 | 0 0 0 | 0 0 0
UGUUCGCCAG | 0.301 | 0.104 0.108 0.0922 | 0 0 0.0464 | 0 0 0
UUGCCGACAG | 0.235 | 0.0869 0.126 0.184 | 0 0 0.0232 | 0 0 0
UACCCGGAUG | 0.170 | 0.0695 0.108 0.0553 | 0 0 0 | 0 0 0
UGACCGAACG | 0.275 | 0.243 0.234 0.129 | 0.221 0.479 0.278 | 0.108 0.0606 0.144
UCGGCGCAUG | 0.209 | 0.0695 0.0719 0.0738 | 0 0 0 | 0 0 0
UCGACGAGUG | 0.196 | 0.122 0.0898 0.0738 | 0.0276 0 0 | 0 0 0
UGAUCGAAGG | 0.131 | 0.0521 0.0359 0.0738 | 0.0276 0 0.0464 | 0 0 0
UAACCGGAUG | 0.0915 | 0.122 0.126 0.0922 | 0.0552 0 0.0232 | 0 0 0
UAAUCGAGUG | 0.327 | 0.122 0.126 0.0738 | 0 0 0 | 0 0 0
UCCUCGCAGG | 0.105 | 0.156 0.144 0.129 | 0 0 0.0464 | 0 0 0
UGAACGGCGG | 0.196 | 0.0869 0.162 0.0738 | 0.0276 0 0.0232 | 0 0 0
UCGCCGCCAG | 0.235 | 0.174 0.0719 0.111 | 0 0 0 | 0 0 0
UUAGCGAUCG | 0.327 | 0.0869 0.0539 0.0738 | 0.0276 0 0 | 0 0 0
UCUGCGCAGG | 0.170 | 0.0869 0.0539 0.0738 | 0.0276 0 0 | 0 0 0
UAUACGCCGG | 0.157 | 0.122 0.108 0.0553 | 0 0 0 | 0 0 0
UAUGCGUACG | 0.196 | 0.0695 0.0898 0.0922 | 0 0 0 | 0 0 0
UCCACGACGG | 0.157 | 0.0695 0.0539 0.111 | 0 0 0 | 0 0 0
UUGACGGUAG | 0.222 | 0.209 0.0719 0.0184 | 0 0 0 | 0 0.0202 0
UGUGCGGUUG | 0.301 | 0.139 0.0719 0.0922 | 0 0 0 | 0 0 0
UUCUCGAUGG | 0.392 | 0.0869 0.0539 0.111 | 0 0 0.0232 | 0 0.0202 0
UAAUCGUCUG | 0.536 | 0.0869 0.0898 0.111 | 0 0 0.0232 | 0 0 0.0410
UGUUCGUCUG | 0.484 | 0.0869 0.180 0.129 | 0 0 0 | 0 0 0
UUCGCGGUUG | 0.222 | 0.0521 0.144 0.0369 | 0 0 0 | 0 0 0
UACUCGCCAG | 0.144 | 0.122 0.0898 0.0553 | 0 0 0.0232 | 0 0 0
UAUUCGUGCG | 0.301 | 0.174 0.0539 0.0738 | 0 0 0 | 0 0 0
UACCCGCAAG | 0.196 | 0.608 0.719 0.645 | 0 0.0504 0.116 | 0 0.0202 0
UAUCCGUGAG | 0.209 | 0.156 0.180 0.0922 | 0.0276 0 0 | 0 0 0
UCUGCGUCUG | 0.261 | 0.139 0.0539 0.0369 | 0 0 0 | 0 0 0
UUGACGGCCG | 0.235 | 0.191 0.0719 0.0738 | 0 0 0.0464 | 0 0 0.0205
UCCGCGUGCG | 0.157 | 0.0695 0.0539 0.0553 | 0 0 0 | 0 0 0
UAUUCGAAAG | 0.288 | 0.156 0.0539 0.0922 | 0 0 0.0232 | 0 0 0
UAGUCGACGG | 0.275 | 0.174 0.108 0.0553 | 0 0 0.0232 | 0 0 0

A selection of 7 entries from above:

* UCGACGCUUG (pool 0.301) -> inoculated region 0.122 0.0719 0.184; leaf margin 0.0552 0 0; systemic leaves 0 0 0
* UGAUCGAAGG (pool 0.131) -> inoculated region 0.0521 0.0359 0.0738; leaf margin 0.0276 0 0.0464; systemic leaves 0 0 0
* UAUUCGUGCG (pool 0.301) -> inoculated region 0.174 0.0539 0.0738; leaf margin 0 0 0; systemic leaves 0 0 0
* UAACCGGAUG (pool 0.0915) -> inoculated region 0.122 0.126 0.0922; leaf margin 0.0552 0 0.0232; systemic leaves 0 0 0
* UGCGCGCCCG (pool 0.248) -> inoculated region 0.104 0.144 0.0369; leaf margin 0 0 0.0232; systemic leaves 0 0 0
* UACCCGGAUG (pool 0.170) -> inoculated region 0.0695 0.108 0.0553; leaf margin 0 0 0; systemic leaves 0 0 0
* UAUUCGAAAG (pool 0.288) -> inoculated region 0.156 0.0539 0.0922; leaf margin 0 0 0.0232; systemic leaves 0 0 0